This data set deals with Rsp (Staphylococcus aureus NCTC8325). Briefly: EMSA. Conditions: recombinant protein, residues 1-701, protein details: 6xHis (pRSF-Duet), label: biotin (reverse primer), probe letters rebuilt from the primers and the genome. (In general: A gel shift assay detects complexes by their altered migration in electrophoresis.)

On to “GCCAGCGATGATACCCATTAAGATTACCTCCTTTGCTTATGAGTTAACTTCATTGTACATAGTTATCTTGTGCGTAATTGATTTTTTTCCTAACTTGAATTGTTATGATCATAACTGCGAATTTTTTATTTTAAAAGGACGGGAAATACTGCCTAACTGTACAGGTGCATTTACAAAATCTTTACAATCATTGGTTTAATAGAGGTTAAGCTCATGAATTTGACATGAAGCAGAAATTTAATTATATTTTATGTTATAAGTTTAAAACGAATAACACGTTAGGTCTCGTCTAGGCAAAGCATATTTATGAAGATGAATTGAACAGA (double strand) [psmα promoter 326 bp]”, for which the binding result was “binds”.
As to “GTATTGTTTTTTGAAATACATAGGTTTGAAATCTATATTAATTATGCACCAAATAATTTAATTAGACTCTATCGAAAATTTCCAAATTTTGCTTACTATCTTTCTAATTTTACTTTTATATTGTGCGCAATGCATAAAAACAAGCGTTTTCCTAGGAGTTTTCATTAATTTCTTTTATTTTTCACTATTACCTTTTCAAAAATATTCAACTATAATAGGTATACTATCCATGATTTTAAAAATTTCCATGTTTTACATTTAAATGATAGATTTCAATATATATTAGGCAGGAGAGAGAAATATGACATGCCAACTTAAA (double strand) [rsp promoter 319 bp]”, the binding result (competed by ~200-fold unlabelled probe) is given as “binds”.
Regarding “TAGTGTTGTTGTTACTGAGCTGACTATACGTGTTTTCATTTTCATCATCCTTCTATTTTTTAAAACGATTTGAGGAAACAATAATCAATATGTCAATTTAGAATATTGCAGTTGAGACATATCAAATATTTATAATCGTTTATATTAGTATATTTAATGTAGCAACTGATAAATTACTGAGTGATGATGAGTGATTATTTTAAGAATATGTTTTTAACTTTTATTTAAAATTTGAAAGGAAGCATTTCAATTTCGAGGGTTAGTCAAAGTTGAATAAATTCTTTATGAAACAAGGAAAAGACATAGCTAA (double strand) [hla promoter 310 bp]”, for the setting “dose-dependent, competed by ~100-fold unlabelled probe”, the binding result is “binds”.

The values above are taken from publication PMC7241556.
